# Results: patent publication US11850237B2, “Compounds and methods for treating influenza” (priority 2009, dated 2023)
# System: H1N1 A/PR/8/34 (PR8)
# Assay type: cell-based, influenza A virus
# Conditions: PR8, MDCK cells
row,SMILES,S.I. LD50/EC50
1,CS(=O)(=O)c1csc(NC(=O)c2ccccc2O)n1 [Compound 28],>500
2,"O=C(Nc1ncc([N+](=O)[O-])s1)c1ccccc1O [Compound 2, tizoxanide]",>50
3,CC(=O)Oc1ccccc1C(=O)Nc1nc([S+](C)[O-])cs1 (stereo not drawn) [Compound 29],>5
4,CC(=O)Oc1ccccc1C(=O)Nc1ncc(S(=O)(=O)c2ccc([N+](=O)[O-])cc2)s1 [Compound 51],9
5,CCOC(=O)Oc1ccccc1C(=O)Nc1ncc([N+](=O)[O-])s1 [Compound 15],30
6,"O=C(Nc1ncc([N+](=O)[O-])s1)c1ccccc1[O-].[Na+] [Compound 3, tizoxanide sodium salt]",>125
7,CCC(=O)Oc1ccccc1C(=O)Nc1ncc([N+](=O)[O-])s1 [Compound 16],20
8,CC(=O)Oc1ccccc1C(=O)Nc1nc(S(=O)(=O)C(C)C)cs1 [Compound 36],>50
9,CC(C)S(=O)(=O)c1csc(NC(=O)c2ccccc2O)n1 [Compound 37],>83.3
10,O=C(Nc1nc(S(=O)(=O)C2CCCCC2)cs1)c1ccccc1O [Compound 39],>5
11,CS(=O)(=O)c1cnc(NC(=O)c2ccccc2O)s1 [Compound 53],>5
12,C[S+]([O-])c1csc(NC(=O)c2ccccc2O)n1 (stereo not drawn) [Compound 30],>5
13,"CC(=O)Oc1ccccc1C(=O)Nc1ncc([N+](=O)[O-])s1 [Compound 1, nitazoxanide]",>50
14,O=C(Oc1ccccc1C(=O)Nc1ncc([N+](=O)[O-])s1)c1ccccc1 [Compound 17],>16.7
15,CC(=O)Oc1ccccc1C(=O)Nc1nc(S(C)(=O)=O)cs1 [Compound 27],>500
16,CC(=O)Oc1ccccc1C(=O)Nc1nc(S(=O)(=O)C2CCCCC2)cs1 [Compound 38],>2
17,CC(=O)Oc1ccc(C(=O)Nc2ncc(S(C)(=O)=O)s2)cc1 [Compound 63],>5
18,CC(C)COC(=O)Oc1ccccc1C(=O)Nc1ncc([N+](=O)[O-])s1 [Compound 14],20
19,CS(=O)(=O)c1cnc(NC(=O)c2ccccc2[O-])s1.[Na+] [Compound 54],>5
20,CCCCS(=O)(=O)c1cnc(NC(=O)c2ccccc2OC(C)=O)s1 [Compound 59],>10
21,CC(=O)Oc1ccccc1C(=O)Nc1ncc(S(C)(=O)=O)s1 [Compound 52],>1.6
